Measured values from several laboratories, pooled; numbers as filed in NIAID ChemDB.

All rows: cytotoxicity tests; cells: CEM; endpoint: CC50

An empty or dashed field is not shown. CCn: concentration that lowers growth or viability of the cells by n%. Conditions beyond the fields shown may differ between rows.

SMILES	read by	value
Nc1nc2c(ncn2C2CC(CO)C2)c(=O)[nH]1		>425 µM
OB(O)c1ccccc1CN1CCSCC1	MTT	156 µM
C[C@@]1(Br)C(=O)NC(=O)N([C@H]2C=C[C@@H](CO)O2)[C@H]1O		>200 µM
CN(C)[C@@H]1C(=O)C(C(N)=O)=C(O)[C@@]2(O)C(=O)C3=C(O)c4c(O)cccc4[C@@](C)(O)[C@H]3C[C@@H]12		>6.6 µg/mL
CCc1c(OCc2cccc3ccccc23)cc(C)oc1=O	MTT	4.4 µM
OB(O)c1ccc(/C=N\NC(=S)Nc2ccccc2)cc1	MTT	105 µM
Cc1cn([C@H]2C[C@H](N=[N+]=[N-])[C@@H](CO[Si](C)(C)C(C)(C)C)O2)c(=O)n(CC(=O)O)c1=O		139 µM
O=C(NCc1cccc(O)c1O)c1ccc2ccc(C(=O)O)c(O)c2n1	MTT	>100 µM
CN(C)CCCNC(=O)c1cc(NC(=O)c2cc(NC(=O)c3cc(NC(=O)c4ccccc4C(=O)O)cn3C)cn2C)cn1C		>200 µM
CO[C@@H]1N([C@H]2C=C[C@@H](CO)O2)C(=O)NC(=O)[C@@]1(C)Cl		>1030 µM
Cc1cn([C@@H]2O[C@H](CO[Si](C)(C)C(C)(C)C)C3(OS(=O)(=O)C=C3N)[C@H]2O[Si](C)(C)C(C)(C)C)c(=O)n(C)c1=O		≥100 µg/mL
Nc1nc(Br)nc2c1ncn2[C@H]1CC[C@@H](CO)O1		8 µM
Nc1nc2c(ncn2[C@@H]2OC[C@@](/C=C/P(=O)(O)O)(CO)[C@@H]2F)c(=O)[nH]1	MTT	>100 µM
Nc1ccc(S(N)(=O)=O)cc1SSc1cc(S(N)(=O)=O)ccc1N		>100 µM
Cc1cn([C@H]2C[C@H](N=[N+]=[N-])[C@@H](COC(=O)C3CCC4C5CCC6=CC(=O)CCC6(C)C5C(O)CC34C)O2)c(=O)[nH]c1=O		>20 µM
Cc1cn([C@@H]2O[C@H](CO[Si](C)(C)C(C)(C)C)C3(OS(=O)(=O)C=C3N)[C@H]2O[Si](C)(C)C(C)(C)C)c(=O)n(CC(=O)N[C@@H](CC(=O)O)C(=O)O)c1=O		>250 µM
CCOP(=O)(CO[C@H]1C[C@@H](n2cnc3c(N)nc(F)nc32)C(F)(F)C1)OCC		>100 µM
CO[C@@H]1N([C@H]2C=C[C@@H](CO)O2)C(=O)NC(=O)[C@@]1(C)I		66 µM
Cc1cn([C@H]2C[C@H](F)[C@@H](COP(=O)(O)O)O2)c(=S)[nH]c1=O		>200 µM
Cc1noc(C)c1-n1sc(=O)n(CC2CC2)c1=O	MTS	>10 µM
COC(=O)[C@H](C)N[P@@](=O)(OC[C@@H]1C=C[C@H](n2cc(C)c(=O)[nH]c2=O)O1)Oc1ccccc1C		>250 µM
CCO[C@H]1N([C@H]2C=C[C@@H](CO)O2)C(=O)NC(=O)[C@]1(C)Br		>14 µM
CC(C)(C)[Si](C)(C)OCC1OC(n2nncc2C(=O)NC2CC2)C(O[Si](C)(C)C(C)(C)C)C12OS(=O)(=O)C=C2N		46 µM
Nc1ccn([C@H]2C=C[C@@H](CO)O2)c(=O)n1		22 µM
Nc1nc(Cl)c2ncn(/C=C3/C[C@@H]3CO)c2n1		96 µM
Cc1cc(NCCc2c[nH]c3ccccc23)c(C(=O)C(Cl)Cl)c(=O)o1	MTT	4 µM
COC(=O)[C@H](C)NP(=O)(OC[C@@H]1C=C[C@H](n2cc(C)c(=O)[nH]c2=O)O1)Oc1ccccc1		129 µM
Cc1cc(S(=O)(=O)Nc2nc(N)nc(N3N=CCC3C)n2)c(SCC(=O)O)cc1Cl		>200 µM
CO[C@H]1N([C@H]2C=C[C@@H](CO)O2)C(=O)NC(=O)[C@]1(C)I		66 µM
CN(C)c1ccc(O)c2c1C[C@H]1C[C@H]3[C@H](N(C)C)C(=O)C(C(N)=O)=C(O)[C@@]3(O)C(=O)C1=C2O		>2.8 µg/mL
CC(C)Nc1cccnc1N1CCN(C(=O)c2cc3cc(NS(C)(=O)=O)ccc3[nH]2)CC1		≥20 µg/mL
Nc1nc(N)c(C=O)c(OCCOCP(=O)(O)O)n1		≥100 µg/mL
COC1(C)C(=O)NC(=O)N([C@H]2C=C[C@@H](CO)O2)[C@@H]1O		>170 µM
CCC(Sc1cc(Cl)c(C)cc1S(=O)(=O)Nc1nc(N)nc(N(C)C)n1)C(=O)O		>200 µM
Cc1cn([C@@H]2O[C@H](CO[Si](C)(C)C(C)(C)C)C3(OS(=O)(=O)C=C3N)[C@H]2O[Si](C)(C)C(C)(C)C)c(=O)n(CC(=O)N[C@@H](C)C(=O)O)c1=O		>250 µM
C[C@H](Cn1cnc2c(N)nc(N)nc21)OCP(=O)(O)O		>300 µM
OB(O)c1ccccc1	MTT	>250 µM
O=C(NNc1ccccc1)c1ccc2ccc(C(=O)O)c(O)c2n1	MTT	>100 µM
Cc1cn([C@@H]2O[C@H](CO[Si](C)(C)C(C)(C)C)[C@@H](O)[C@H]2O[Si](C)(C)C(C)(C)C)c(=O)n(CC#N)c1=O		21 µM
Nc1cc(OCCOCP(=O)(O)O)nc(N)n1		3.9 µg/mL
CN(C)[C@@H]1C(=O)C(C(=O)NCNC(CCCCN)C(=O)O)=C(O)[C@@]2(O)C(=O)C3=C(O)c4c(O)cccc4[C@@](C)(O)C3C[C@@H]12		30 µg/mL
Nc1nc2c(ncn2/C=C2/C[C@@H]2CO)c(=O)[nH]1		90 µM
C[C@H](NP(=O)(N[C@@H](C)C(=O)OCc1ccccc1)OC[C@@H]1O[C@H](n2ccc(N)nc2=O)CS1)C(=O)OCc1ccccc1		>250 µM
Cc1cc(NCCc2c[nH]c3ccccc23)cc(=O)o1	MTT	121 µM
Nc1ncnc2c1ncn2[C@@H]1OC[C@@](/C=C/P(=O)(O)O)(CO)[C@@H]1F	MTT	>100 µM
Nc1ncnc2c1ncn2CCOCP(=O)(O)O	MTT	40 µM
COc1ccc(C=O)cc1B(O)O	MTT	>250 µM
CN(C)CCCNC(=O)c1cc(NC(=O)c2cc(NC(=O)c3cc(NC(=O)c4ccc(C(=O)Nc5cc(C(=O)Nc6cc(C(=O)Nc7cc(C(=O)NCCCN(C)C)n(C)c7)n(C)c6)n(C)c5)cc4)cn3C)cn2C)cn1C		>100 µM
CC(C)(C)[Si](C)(C)OCC1OC(n2nncc2C(=O)NC2CCC2)C(O[Si](C)(C)C(C)(C)C)C12OS(=O)(=O)C=C2N		>250 µM
Nc1ncnc2c1ncn2/C=C1/C[C@@H]1CO		65 µM
CN(C)CCCNC(=O)c1cc(NC(=O)c2cc(NC(=O)c3cc(NC(=O)c4ccc(C(=O)Nc5cc(C(=O)Nc6cc(C(=O)Nc7cc(C(=O)NCCCN(C)C)n(C)c7)n(C)c6)n(C)c5)nc4)cn3C)cn2C)cn1C		>100 µM
OB(O)c1ccc(Br)cc1	MTT	205 µM
Cc1cn([C@@H]2O[C@H](CO[Si](C)(C)C(C)(C)C)[C@@]3(OS(=O)(=O)C=C3N)[C@H]2O[Si](C)(C)C(C)(C)C)c(=O)n(CC(=O)N[C@@H](CCC(=O)O)C(=O)O)c1=O		>250 µM
CC(C)(C)CC(C)(C)c1ccc(OCCOP(=O)([O-])OCCC[N+](C)(C)Cc2ccccc2)cc1	MTT	>100 µM
Cc1cc(N(Cc2cccc3ccccc23)C(=O)C(Cl)Cl)cc(=O)o1	MTT	50 µM
Cc1cn([C@H]2C[C@H](N=[N+]=[N-])[C@@H](CO)O2)c(=O)[nH]c1=O		>40 µg/mL
CSc1c(C)c(SC)n2ccncc12		109 µM
Nc1nc(NC2CC2)c2ncn(/C=C3/C[C@@H]3CO)c2n1		70 µM
CN(C)CCCNC(=O)c1cc(NC(=O)c2cc(NC(=O)c3cc(NC(=O)c4cccc(C(=O)Nc5cc(C(=O)Nc6cc(C(=O)Nc7cc(C(=O)NCCCN(C)C)n(C)c7)n(C)c6)n(C)c5)n4)cn3C)cn2C)cn1C		>100 µM
O=C(NCc1ccc(O)cc1O)c1ccc2ccc(C(=O)O)c(O)c2n1	MTT	>100 µM
Cc1cc(S(=O)(=O)Nc2n[nH]c(-c3ccc(Cl)cn3)n2)c(S)cc1Cl		116.7 µM
CC(=O)OC(OC(C)=O)c1ccc2c(c1)COP(=O)(OC[C@@H]1C=C[C@H](n3cc(C)c(=O)[nH]c3=O)O1)O2		99 µM
CC(C)(C)[Si](C)(C)OC[C@H]1O[C@@H](n2ccc(=O)n(CC(=O)O)c2=O)[C@H](O[Si](C)(C)C(C)(C)C)[C@@H]1O		78 µM
CC(=O)OC(OC(C)=O)c1cc(C)c2c(c1)COP(=O)(OC[C@@H]1C=C[C@H](n3cc(C)c(=O)[nH]c3=O)O1)O2		19 µM
CO[C@@H]1N([C@H]2C=C[C@@H](CO)O2)C(=O)NC(=O)[C@@]1(C)Br		>128 µM
Cc1cn([C@H]2C[C@H](N=[N+]=[N-])[C@@H](CO)O2)c(=O)[nH]c1=O		11.6 µM
Nc1nc2c(ncn2C2CC(/C=C/P(=O)(O)O)(C(F)(F)F)CO2)c(=O)[nH]1	MTT	>100 µM
CCCCCCCCCCCCCCCCOP(=O)([O-])OCCC[N+](C)(C)C	MTT	6.2 µM
CCCCC(Sc1cc(Cl)c(C)cc1S(=O)(=O)Nc1n[nH]c(N)n1)C(=O)OC		112 µM
CN(C)CCCNC(=O)c1cc(NC(=O)c2cc(NC(=O)c3cc(NC(=O)c4cncc(C(=O)Nc5cc(C(=O)Nc6cc(C(=O)Nc7cc(C(=O)NCCCN(C)C)n(C)c7)n(C)c6)n(C)c5)c4)cn3C)cn2C)cn1C		>100 µM
OB(O)c1ccc(F)cc1	MTT	>250 µM
CCCCCCCCCCCCCCCCOP(=O)([O-])OCCC[n+]1ccccc1	MTT	34.6 µM
Nc1cc(C(=O)O)ccc1SSc1ccc(C(=O)O)cc1N		>200 µM
CCCCCCCCCCCCCCCCOP(=O)([O-])OCCC[N+](C)(C)Cc1ccccc1	MTT	62.2 µM
COc1cc(NC(=O)c2ccc3ccc(C(=O)O)c(O)c3n2)cc(O)c1O	MTT	>100 µM
CC(C)(C)OC(=O)Nc1cccc(B(O)O)c1	MTT	>250 µM
O=C1C(Cl)=C(Cl)C(=O)c2ccccc21	MTS	5 µM
CCN(C)C(=O)c1cnnn1C1OC(CO[Si](C)(C)C(C)(C)C)C2(OS(=O)(=O)C=C2N)C1O[Si](C)(C)C(C)(C)C		≥250 µM
OB(O)c1ccc(Cl)cc1	MTT	>250 µM
O=C(NCc1ccc(O)c(O)c1)c1ccc2ccc(C(=O)O)c(O)c2n1	MTT	>100 µM
O=C(O)P(=O)(O)O		800 µM
Cc1cc(S(=O)(=O)Nc2n[nH]c(N)n2)c(SCc2nc(N)nc(N(C)C)n2)cc1Cl		>200 µM
Nc1nc(N)c(Cl)c(OCCOCP(=O)(O)O)n1		≥100 µg/mL

The first 9 rows once more:

SMILES,read by,value
Nc1nc2c(ncn2C2CC(CO)C2)c(=O)[nH]1,,>425 µM
OB(O)c1ccccc1CN1CCSCC1,MTT,156 µM
C[C@@]1(Br)C(=O)NC(=O)N([C@H]2C=C[C@@H](CO)O2)[C@H]1O,,>200 µM
CN(C)[C@@H]1C(=O)C(C(N)=O)=C(O)[C@@]2(O)C(=O)C3=C(O)c4c(O)cccc4[C@@](C)(O)[C@H]3C[C@@H]12,,>6.6 µg/mL
CCc1c(OCc2cccc3ccccc23)cc(C)oc1=O,MTT,4.4 µM
OB(O)c1ccc(/C=N\NC(=S)Nc2ccccc2)cc1,MTT,105 µM
Cc1cn([C@H]2C[C@H](N=[N+]=[N-])[C@@H](CO[Si](C)(C)C(C)(C)C)O2)c(=O)n(CC(=O)O)c1=O,,139 µM
O=C(NCc1cccc(O)c1O)c1ccc2ccc(C(=O)O)c(O)c2n1,MTT,>100 µM
CN(C)CCCNC(=O)c1cc(NC(=O)c2cc(NC(=O)c3cc(NC(=O)c4ccccc4C(=O)O)cn3C)cn2C)cn1C,,>200 µM